Test results taken from article PMC9628480, “Discovery and structural characterization of chicoric acid as a SARS-CoV-2 nucleocapsid protein ligand and RNA binding disruptor”.

Molecular target: SARS-CoV-2 nucleocapsid (N) protein, full-length (SARS-CoV-2 (protein amplified from …, UniProt A0A6B9VLF5 1-419))
Test: fluorescence polarization
Conditions: protein: recombinant; tags: 6xHis (pET28a-TEV), not cleaved; chain copies: 2; label: 5'-FITC

Binder: CACUCACUGUC (ssRNA) [RNA4 (also lacks UUUUUU)]
- Kd: 973 ± 235 nM

Binder: CACUCACUGUCUUUUUU (ssRNA) [RNA3 (arm after UUUUUU deleted)]
- Kd: 149 ± 7.1 nM
